Values quoted from earlier work in article PMC6889097 (Virologica Sinica, 2019).

Tested on: lethal influenza virus infection
Conditions: mouse, cited from earlier work

CC(C)Cc1ccc(C(C)C(=O)O)cc1 (centres unmarked) [Ibuprofen, ibuprofen]
reported effect on survival rate of influenza-infected mice (in vivo): no improvement on the survival rate | In vivo: the protective effect of mice from lethal influenza infection: ±
